Experimental data published in patent US7718680B2 (priority 2004, dated 2010).

The chains behind the UniProt entries cited, without tags or fusion partners. Residues count along the entry.
UniProt P15917, 34-809 limits assumed: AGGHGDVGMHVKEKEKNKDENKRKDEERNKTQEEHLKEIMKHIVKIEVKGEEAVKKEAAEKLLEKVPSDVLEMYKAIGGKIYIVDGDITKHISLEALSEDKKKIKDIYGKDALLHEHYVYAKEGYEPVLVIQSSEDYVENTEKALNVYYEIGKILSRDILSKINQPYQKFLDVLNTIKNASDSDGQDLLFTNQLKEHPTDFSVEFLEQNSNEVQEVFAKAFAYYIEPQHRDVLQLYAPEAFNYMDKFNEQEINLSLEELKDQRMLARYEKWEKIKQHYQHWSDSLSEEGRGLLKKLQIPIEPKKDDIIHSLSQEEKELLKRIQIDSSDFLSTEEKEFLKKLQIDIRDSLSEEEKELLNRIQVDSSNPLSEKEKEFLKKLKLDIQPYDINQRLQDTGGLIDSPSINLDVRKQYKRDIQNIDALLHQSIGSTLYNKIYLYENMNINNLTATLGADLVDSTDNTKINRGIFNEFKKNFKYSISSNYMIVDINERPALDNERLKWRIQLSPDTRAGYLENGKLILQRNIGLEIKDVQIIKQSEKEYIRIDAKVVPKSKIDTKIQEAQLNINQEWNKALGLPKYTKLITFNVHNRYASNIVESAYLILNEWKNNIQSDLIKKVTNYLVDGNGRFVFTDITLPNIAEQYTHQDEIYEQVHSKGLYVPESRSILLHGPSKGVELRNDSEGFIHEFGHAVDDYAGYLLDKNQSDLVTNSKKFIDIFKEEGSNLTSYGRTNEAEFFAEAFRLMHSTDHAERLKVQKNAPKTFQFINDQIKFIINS

Target: Lethal Factor (LF) protease of anthrax toxin (Bacillus anthracis, UniProt P15917)
Format: biochemical

With `O=C1/C(=C/c2ccc(-c3ccc([N+](=O)[O-])cc3)o2)SC(=S)N1Cc1ccco1` [Compound 9] the IC50 was 12.6 µM.

`O=C(O)CCN1C(=O)/C(=C/c2ccc(-c3ccc([N+](=O)[O-])cc3)o2)SC1=S` [Compound 19] was tested, and the IC50 was 2.7 µM.
